Values from PubChem BioAssay AID624099 (ICCB-Longwood, 2012)
This is an unselected part of about 21,000 reagents. Over the whole deposit, 497 (2.4%) are marked active. 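Higher z means weaker E2 silencing; only reporter increases were scored, and knock-downs that hurt cell survival may mask genuine repressor factors.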 The numbers tell different reagents against one gene apart.

Aim: 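Host factors E2 relies on to silence an HPV18 LCR reporter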 (primary screen)
Cells: human C33A cervical carcinoma cells (HPV-negative) stably expressing BPV1 E2 and an HPV18 LCR luciferase reporter
Reagent: siRNA pool against human genes, 40 nM
Time to read-out: 72 h
Measurement: 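Per-well luciferase luminescence, z-scored on each plate against the plate mean and SD with control wells left out, then averaged across three replicate plates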
Scale: mean z-score and z-score: higher = stronger reporter signal, weaker E2 silencing
Rule for the call: 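Hit if mean z-score reaches 2 and two or more of three replicate z-scores also reach 2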

| gene | reagent | mean z-score | z-score, replicate A | z-score, replicate B | z-score, replicate C | activity call |
| --- | --- | --- | --- | --- | --- | --- |
| RO60 | 1 | -0.57 | -0.34 | -0.52 | -0.87 | inactive |
| FBXO25 | 1 | -0.38 | -0.47 | -0.22 | -0.46 | inactive |
| PM20D1 | 1 | 1.64 | 1.67 | 1.72 | 1.52 | inactive |
| LMCD1-AS1 | 1 | 0.33 | 0.52 | 0.34 | 0.12 | inactive |
| HILPDA | 1 | 0.55 | 0.79 | 0.39 | 0.48 | inactive |
| NCAM2 | 1 | -0.27 | -0.21 | -0.37 | -0.22 | inactive |
| HHCM | 1 | -0.67 | -0.93 | -0.25 | -0.83 | inactive |
| PRPF6 | 1 | 0.3 | 0.24 | 0.27 | 0.4 | inactive |
| LPCAT1 | 1 | 0.72 | 0.73 | 0.52 | 0.9 | inactive |
| VRK3 | 1 | 0.34 | 0.36 | 0.19 | 0.47 | inactive |
| RPL10P14 | 1 | 1.11 | 0.91 | 0.99 | 1.43 | inactive |
| KRT18P55 | 1 | 0.02 | 0.14 | 0.02 | -0.11 | inactive |
| WDCP | 1 | -1.1 | -1.14 | -1.42 | -0.74 | inactive |
| PPP2R2C | 1 | -1.83 | -1.8 | -1.87 | -1.81 | inactive |
| LOC401528 (retired record) | 1 | 1.13 | 1.47 | 0.75 | 1.17 | inactive |
| ZNF358 | 1 | 1.29 | 0.91 | 1.17 | 1.8 | inactive |
| PMPCA | 1 | 0.01 | -0.18 | 0.23 | -0.04 | inactive |
| MEP1A | 1 | 0.35 | 0.79 | 0.32 | -0.07 | inactive |
| PSRC1 | 1 | -0.2 | 0.11 | -0.51 | -0.21 | inactive |
| ATG4A | 1 | 0.1 | -0.22 | -0.1 | 0.63 | inactive |
| STXBP1 | 1 | 0.05 | 0.3 | 0.01 | -0.15 | inactive |
| LOC400526 (retired record) | 1 | 1.13 | 1.12 | 1.15 | 1.13 | inactive |
| TPSAB1 | 1 | 1.39 | 1.57 | 1.39 | 1.2 | inactive |
| TPSAB1 | 2 | -0.14 | -0.27 | -0.11 | -0.03 | inactive |
| IGF1 | 1 | -0.08 | -0.07 | -0.12 | -0.05 | inactive |
| WDR38 | 1 | 0.17 | -0.38 | 0.64 | 0.25 | inactive |
| ADAMTS19 | 1 | -0.55 | -0.4 | -0.48 | -0.77 | inactive |
| BRINP3 | 1 | 0.02 | 0.16 | 0.03 | -0.13 | inactive |
| KCTD21 | 1 | 0.52 | 0.38 | 0.76 | 0.41 | inactive |
| TTR | 1 | 0.62 | 0.56 | 0.78 | 0.53 | inactive |
| HIP1R | 1 | 0.39 | 0.69 | 0.21 | 0.25 | inactive |
| LINC00683 | 1 | -1.01 | -0.79 | -1.39 | -0.85 | inactive |
| CYP7B1 | 1 | 1.28 | 1.1 | 1.28 | 1.46 | inactive |
| LAMB4 | 1 | 0.19 | -0.15 | 0.21 | 0.53 | inactive |
| DDX55 | 1 | 0.36 | 0.23 | 0.71 | 0.14 | inactive |
| RBM43 | 1 | 0.17 | 0.05 | 0.43 | 0.03 | inactive |
| HPN | 1 | 1.57 | 1.75 | 1.7 | 1.24 | inactive |
| PTPDC1 | 1 | -1.79 | -1.87 | -1.92 | -1.6 | inactive |
| NPC2 | 1 | -0.39 | -0.63 | -0.31 | -0.22 | inactive |

Laid out differently: entries from further up
gene	reagent	mean z-score	z-score, replicate A	z-score, replicate B	z-score, replicate C	activity call
LOC400526 (retired record)	1	1.13	1.12	1.15	1.13	inactive
TPSAB1	1	1.39	1.57	1.39	1.2	inactive
TPSAB1	2	-0.14	-0.27	-0.11	-0.03	inactive
IGF1	1	-0.08	-0.07	-0.12	-0.05	inactive
